Compound potency records, mixed from different reports. Data source: NIAID ChemDB in PubChem.

Shared fields: growth or infection tests

Zone: diameter of growth inhibition. ECn is the concentration giving n% inhibition of infection, replication or growth. Neighbouring rows are from separate reports. A number after MIC or MFC names an inhibition level or a share of isolates. An empty or dashed field is not shown. Two numbers with a dash give a range or band. Percent inhibition refers to the dose given; in toxicity tests it is the harm to the cells.

compound	dose	strain	agent	conditions	measure	read by	result
NNC(=O)c1ccncc1		N-978 (HIV+)	Mycobacterium avium complex		MIC		64 µg/mL
CCc1cn(C2OC(COC(C)=O)C(OC(C)=O)C2F)c(=O)[nH]c1=O			Mycobacterium bovis BCG		MIC75	resazurin	100 µg/mL
FC(F)(F)c1ccccc1CCNc1ncnc2ccsc12			Mycobacterium bovis BCG		MIC50	luminescence	>50 µM
CC[C@H]1OC(=O)[C@H](C)[C@@H](O[C@H]2C[C@@](C)(OC)[C@@H](O)[C@H](C)O2)[C@H](C)[C@@H](O[C@@H]2O[C@H](C)C[C@H](N(C)C)[C@H]2O)[C@](C)(OC)C[C@@H](C)C(=O)[C@H](C)[C@@H](O)[C@]1(C)O		N-945 (HIV+)	Mycobacterium avium complex		MIC		1 µg/mL
CO[C@H]1/C=C/O[C@@]2(C)Oc3c(C)c(O)c4c(O)c(c5c(c4c3C2=O)NC2(CCN(CC(C)C)CC2)N=5)=NC(=O)/C(C)=C\C=C\[C@H](C)[C@H](O)[C@@H](C)[C@@H](O)[C@@H](C)[C@H](OC(C)=O)[C@@H]1C		SKV	Mycobacterium avium intracellulare		MIC		0.125 µg/mL
CO[C@@]1(NC(=O)CCCC(N)C(=O)O)C(=O)N2C(C(=O)O)=C(COC(N)=O)CSC21		AO5	Mycobacterium fortuitum		MIC		>100 µg/mL
FC(F)(F)c1ccc(Oc2ccc(Nc3ncnc4cc(Cl)ccc34)cc2)cc1			Mycobacterium bovis BCG		MIC50	luminescence	>20 µM
Clc1ccc(C(Cn2nnnc2-c2ccccc2)OCc2nnc(Nc3ccccc3)o2)cc1		ATCC 21881	Mycobacterium luteus		MIC	broth dilution	100 µg/mL
Fc1ccc2c(Nc3ccc(N4CCC5(CC4)CCN(c4ccc(C(F)(F)F)cc4)CC5)cc3)ncnc2c1			Mycobacterium bovis BCG		MIC50	luminescence	>50 µM
Cc1nn(Cc2cn(CCCCCCCCn3cc(Cn4nc(C)n(/N=C/c5cccs5)c4=O)nn3)nn2)c(=O)n1/N=C/c1cccs1	20 mg/mL		Mycobacterium luteus		zone	agar diffusion	0.6 mm
Fc1cc(CNc2ncnc3ccccc23)ccc1N1CCN(c2ccc(C(F)(F)F)cn2)CC1			Mycobacterium bovis BCG		MIC50	luminescence	>50 µM
Cc1c(OCC(F)(F)F)ccnc1CSc1nc2ccccc2[nH]1		2005-0484	Mycobacterium massiliense		MIC90	resazurin	>100 µM
FC(F)(F)Oc1ccc(CCNc2ncnc3ccccc23)cc1			Mycobacterium bovis BCG		MIC50	luminescence	>20 µM
CCc1nc2ccc(Cl)cn2c1C(=O)NCc1ccc(N(C)C)cc1			Mycobacterium ulcerans		MIC50	fluorescence	0.001–0.01 µg/mL
COc1ccc(/C=N/n2c(C)nn(Cc3cn(CCCCCn4cc(Cn5nc(C)n(/N=C/c6ccc(OC)cc6)c5=O)nn4)nn3)c2=O)cc1	20 mg/mL		Mycobacterium luteus		zone	agar diffusion	0.6 mm
COc1c(NC(=O)c2ccc(NC(=O)c3ccc(NC(=O)[C@H](Cc4cn[nH]n4)NC(=O)c4ccc(NC(=O)/C(C)=C/c5ccc(O)cc5)cc4)cc3F)c(OC)c2O)ccc(C(=O)O)c1O		130.21	Mycobacterium luteus		MIC	resazurin	0.031 µg/mL
COc1ccc(CCn2c(C)nn(Cc3cn(CCCn4cc(Cn5nc(C)n(CCc6ccc(OC)cc6)c5=O)nn4)nn3)c2=O)cc1	20 mg/mL		Mycobacterium luteus		zone	agar diffusion	1.313 mm
FC(F)(F)Oc1cccc(CCNc2ncnc3ccccc23)c1			Mycobacterium bovis BCG		MIC50	luminescence	>20 µM
CCc1cc(C(N)=S)ccn1	2.5 µg/mL	31 strains	Mycobacterium avium complex		inhibition	broth dilution	16.1%
FC(F)(F)c1ccc(Oc2ccc(Nc3nccc4ccccc34)cc2)cc1			Mycobacterium bovis BCG		MIC50	luminescence	>20 µM
Cc1ccn2c(C(=O)NCc3ccc(N(C)C)cc3)c(C)nc2c1			Mycobacterium ulcerans		MIC50	fluorescence	0.1–1 µg/mL
Cc1cc(C)n(C(=O)COC(Cn2nnnc2-c2ccccc2)c2ccc(Cl)cc2)n1		ATCC 21881	Mycobacterium luteus		MIC	broth dilution	50 µg/mL
CO[C@H]1/C=C/O[C@@]2(C)Oc3c(C)c(O)c4c(=O)c(c5oc6cc(N7CCN(CC(C)C)CC7)cc(=O)c6nc5c4c3=C2O)NC(=O)/C(C)=C\C=C\[C@H](C)[C@H](O)[C@@H](C)[C@@H](O)[C@@H](C)[C@H](OC(C)=O)[C@@H]1C		N-978 (HIV+)	Mycobacterium avium complex		MIC		0.0313 µg/mL
Nc1ccc(S(=O)(=O)c2ccc(N)cc2)cc1		3404-4	Mycobacterium avium complex		MIC		>64 µg/mL
Fc1ccc2c(Nc3ccc(N4CCCN(c5ccc(C(F)(F)F)cc5)CC4)cc3)ncnc2c1			Mycobacterium bovis BCG		MIC50	luminescence	>20 µM
NCC[C@H](O)C(=O)N[C@@H]1C[C@H](N)[C@@H](O[C@H]2O[C@H](CN)[C@@H](O)[C@H](O)[C@H]2O)[C@H](O)[C@H]1O[C@H]1O[C@H](CO)[C@@H](O)[C@H](N)[C@H]1O		Clinical isolate MR313292	Mycobacterium abscessus		MIC100	broth dilution / visual reading	4 µg/mL
O=c1[nH]c(=S)c(CO)cn1C1OC(CO)C(O)C1O			Mycobacterium bovis BCG		MIC100	resazurin	50 µg/mL
CCCCCCCN1CCc2c(sc(NC(=O)c3c(F)c(F)c(F)c(F)c3F)c2C(=O)OCC)C1			Mycobacterium abscessus		EC50	turbidity	34 µM
CC(C)N(C)CCN(C)C(C)C	250 µg/mL	ATCC 607	Mycobacterium smegmatis		inhibition		0%
Cc1nn(Cc2cn(CCn3cc(Cn4nc(C)n(/N=C/c5cccs5)c4=O)nn3)nn2)c(=O)n1/N=C/c1cccs1	20 mg/mL		Mycobacterium luteus		zone	agar diffusion	1.787 mm
Clc1ccc(C2Cn3nnnc3Cc3ccccc32)cc1		ATCC 21881	Mycobacterium luteus		MIC	broth dilution	>200 µg/mL
CCNC(=O)c1c(NC(=O)c2c(F)c(F)c(F)c(F)c2F)sc2c1CCN(CC)C2		bolletii 103	Mycobacterium abscessus		EC50	resazurin / turbidity	120 µM
CO[C@@]1(NC(=O)Cc2ccccc2)C(=O)N2C(C(=O)O)=C(COC(C)=O)CSC21		1030-8	Mycobacterium fortuitum		MIC		25 µg/mL
COc1ccc(/C=N/n2c(C)nn(Cc3cn(CCn4cc(Cn5nc(C)n(/N=C/c6ccc(OC)cc6)c5=O)nn4)nn3)c2=O)cc1	20 mg/mL		Mycobacterium luteus		zone	agar diffusion	1.21 mm
Nc1nc(N)c2c(n1)NC(c1ccc3c(c1)OCO3)CC(c1ccc(Cl)cc1)=N2		MNT1100	Mycobacterium szulgai	clinical isolate	MIC	MTT / broth dilution / absorbance	16 µg/mL
CO[C@@]1(NC(=O)CSCC#N)C(=O)N2C(C(=O)O)=C(CSc3nnnn3C)CS[C@@H]21		1049	Mycobacterium fortuitum		MIC		6.25 µg/mL
C[C@@H]1CN(c2c(F)c(N)c3c(=O)c(C(=O)O)cn(C4CC4)c3c2F)C[C@H](C)N1		NCTC10831	Mycobacterium szulgai		MIC	broth dilution / visual reading	0.4 µg/mL
Cc1nn(Cc2cn(CCCCCCCCCCn3cc(Cn4nc(C)n(/N=C/c5cccs5)c4=O)nn3)nn2)c(=O)n1/N=C/c1cccs1	20 mg/mL		Mycobacterium luteus		zone	agar diffusion	0.6 mm
CC1COc2c(N3CCN(C)CC3)c(F)cc3c(=O)c(C(=O)O)cn1c23		31 strains	Mycobacterium avium intracellulare		MIC90		100 µg/mL
FC(F)(F)Oc1ccc(Oc2ccc(Nc3ncnc4cc(Br)ccc34)cc2)cc1			Mycobacterium bovis BCG		MIC50	luminescence	>20 µM
CSc1nc(N)c2c(n1)NC(c1ccc(Cl)cc1)CC(c1ccc3c(c1)OCO3)=N2		MNT1100	Mycobacterium szulgai	clinical isolate	MIC	MTT / broth dilution / absorbance	>32 µg/mL
C[C@H]1[C@H](C)CC[C@]2(C(=O)O)CC[C@]3(C)C(CC[C@@H]4[C@@]5(C)C[C@H](O)CC(C)(C)[C@@H]5CC[C@]43C)[C@H]12			Mycobacterium simiae		MIC	resazurin	>200 µg/mL
NNC(=O)c1ccncc1		MNT1193	Mycobacterium scrofulaceum	clinical isolate	MIC	MTT / broth dilution / absorbance	>0.5 µg/mL
C[C@@H]1CN(c2c(F)c(N)c3c(=O)c(C(=O)O)cn(C4CC4)c3c2F)C[C@H](C)N1		25 isolates	Mycobacterium fortuitum		MBC90		2 µg/mL
FC(F)(F)Oc1ccc(CCNc2ncnc3cc(C(F)(F)F)ccc23)cc1			Mycobacterium bovis BCG		MIC50	luminescence	>20 µM
CCc1cc(C(N)=S)ccn1		3350-4	Mycobacterium avium		MBC		80 µg/mL
COc1ccc2nc(C)cc(Nc3ccc(Oc4ccc(C(F)(F)F)cc4)cc3)c2c1			Mycobacterium bovis BCG		MIC50	luminescence	20 µM
O=C(/C=C/c1ccc(O)cc1)OC[C@@H]1O[C@H](OC(=O)/C=C/c2ccc(O)cc2)[C@@H](O)[C@@H](O)[C@H]1O			Mycobacterium aurum		MIC	broth dilution / resazurin	125 µg/mL
CC(C)=CCC/C(C)=C/Cc1cc2ccc(=O)oc2cc1O		PL 104482	Mycobacterium aurum		MIC		3.4 µM
COc1ccc(C2=Nc3c(N)nc(N)nc3NC(c3ccc4c(c3)OCO4)C2)cc1		MNT1100	Mycobacterium szulgai	clinical isolate	MIC	MTT / broth dilution / absorbance	32 µg/mL
CO[C@@]1(NC(=O)CCCC(N)C(=O)O)C(=O)N2C(C(=O)O)=C(COC(C)=O)CSC21		1049	Mycobacterium fortuitum		MIC		>100 µg/mL
CCCn1ncc2cc3c(c(OC(C)=O)c2c1=O)-c1c(c(OC)c2c(c1OC(C)=O)C(=O)c1cc(OC(C)=O)c(C)c(OC(C)=O)c1C2=O)CC3		SG346	Mycobacterium phlei		MIC		1600 µg/mL
CCc1cn(C2OC(CO)C(O)C2F)c(=O)[nH]c1=S			Mycobacterium bovis BCG		MIC65	resazurin	100 µg/mL
O=C(C1CCN(c2nnc(-n3cccc3)s2)CC1)N1CCC(Cc2ccccc2)CC1			Mycobacterium bovis BCG		MIC	fluorescence	1.6 µM
CC(=O)c1c(O)c(C)c(O)c2c1OC1=CC(=O)C(C(C)=O)C(=O)[C@@]12C			Mycobacterium aurum		MIC		32 µg/mL
Cc1nc2ccccn2c1C(=O)NCc1cccnc1			Mycobacterium ulcerans		MIC50	fluorescence	>10 µg/mL
CC(C)N=C(N)/N=C(\N)NOCCCOc1cc(Cl)c(Cl)cc1Cl		3008	Mycobacterium avium complex		MIC		32 µg/mL
CC1(C)S[C@@H]2[C@H](NC(=O)[C@H](N)c3ccccc3)C(=O)N2[C@H]1C(=O)O	10 µg/mL		Mycobacterium luteus		zone	agar diffusion	1.43 mm
CCOC(=O)c1c(NC(=O)c2c(F)c(F)c(F)c(F)c2F)sc2c1CCNC2			Mycobacterium abscessus		EC50	turbidity	1.1 µM
CCCCN(CCCC)CCN(C)C		ATCC 607	Mycobacterium smegmatis		EC50		>250 µg/mL
C=C(C)[C@H](O)COc1c2ccoc2cc2oc(=O)ccc12			Mycobacterium aurum		MIC		64 µg/mL
FC(F)(F)c1ccccc1CCNc1ncnc2ccccc12			Mycobacterium bovis BCG		MIC50	luminescence	>50 µM
CO[C@@]1(NC(=O)C2SC(=C(C(N)=O)C(=O)[O-])S2)C(=O)N2C(C(=O)[O-])=C(CSc3nnnn3C)CS[C@@H]21		1030-8	Mycobacterium fortuitum		MIC		50 µg/mL
Clc1ccc(CCNc2ncnc3ccsc23)cc1Cl			Mycobacterium bovis BCG		MIC50	luminescence	>50 µM
Cc1nc2ccccn2c1C(=O)NCc1ccc(-c2ccccc2)cc1			Mycobacterium ulcerans		MIC50	fluorescence	0.1–1 µg/mL
CC(C)CC(C)NCCNC(C)CC(C)C	250 µg/mL	ATCC 607	Mycobacterium smegmatis		inhibition		0%
CCOC(=O)COC(Cn1nnnc1-c1ccccc1)c1ccc(Cl)cc1		ATCC 21881	Mycobacterium luteus		MIC	broth dilution	>200 µg/mL
CCC(C)NCCNC(C)C		ATCC 607	Mycobacterium smegmatis		EC50		<30 µg/mL
COc1c(NC(=O)c2ccc(NC(=O)c3ccc(NC(=O)[C@H](Cc4cn[nH]n4)NC(=O)c4ccc(NC(=O)/C(C)=C/c5ccc(O)cc5)cc4)cn3)c(OC)c2O)ccc(C(=O)O)c1O		130.21	Mycobacterium luteus		MIC	resazurin	0.031 µg/mL
Fc1ccc(C2CCN(c3ccc(Nc4ncnc5ccccc45)cc3)CC2)cc1			Mycobacterium bovis BCG		MIC50	luminescence	>50 µM
COc1c(NC(=O)c2ccc(NC(=O)c3ccc(NC(=O)[C@H](Cc4cn[nH]n4)NC(=O)c4ccc(NC(=O)/C(C)=C/c5ccc(O)cc5)cc4)cc3C(F)(F)F)c(OC)c2O)ccc(C(=O)O)c1O		130.21	Mycobacterium luteus		MIC	resazurin	4 µg/mL
N[C@@H]1CONC1=O		155 strains	Mycobacterium avium complex		EC50	agar	>30 µg/mL
c1ccc2c(NCCN3CCOCC3)ncnc2c1			Mycobacterium bovis BCG		MIC50	luminescence	>20 µM
Nc1nc(N)c2c(n1)NC(c1ccc3c(c1)OCO3)CC(c1ccc(F)cc1)=N2		MNT1193	Mycobacterium scrofulaceum	clinical isolate	MIC	MTT / broth dilution / absorbance	>32 µg/mL
CC(C)=CCC/C(C)=C/CNc1ncnc2ccoc12			Mycobacterium bovis BCG		MIC50	luminescence	>20 µM
S=c1[nH]nc(COC(Cn2nnnc2-c2ccccc2)c2ccc(Cl)cc2)n1-c1ccc(Cl)cc1		ATCC 21881	Mycobacterium luteus		MIC	broth dilution	100 µg/mL
CO[C@H]1/C=C/O[C@@]2(C)Oc3c(C)c(O)c4c(O)c(c5c(c4c3C2=O)NC2(CCN(CC(C)C)CC2)N=5)=NC(=O)/C(C)=C\C=C\[C@H](C)[C@H](O)[C@@H](C)[C@@H](O)[C@@H](C)[C@H](OC(C)=O)[C@@H]1C		N-269 (HIV-)	Mycobacterium avium complex		MIC		0.2 µg/mL